Measurements as given in patent US20110033498.

What was measured:
[1] = target: K48-linked poly-ubiquitin chains Ub2-7 (UniProt P0CG47)
[2] = target: K63-linked poly-ubiquitin chains (UniProt P0CG47)

Substance | in vitro hydrolysis of K48-linked Ub chains, Coomassie staining [1] | in vitro deconjugation assay, SDS-PAGE and Coomassie-type staining [2] | in vitro deconjugation assay, SDS-PAGE and Coomassie-type staining [1]
A20 catalytic domain (A20CD) | even though it cleaved K48-linked Ub chains (FIG. 12F, lane 4) | – | –
USP5/Isopeptidase T | – | similarly to isopeptidase T, a known DUB enzyme (FIG. 12B, lane 10) | similarly to isopeptidase T, a known DUB enzyme (FIG. 12B, lane 10)
